We go through six substances from patent US20140106982A1.

For the experiment, the target named is mouse monoclonal antibody FB 11. As to the kind of experiment: VLP library affinity selection on FB 11, 12 clones sequenced.
Turning to QGDHLQ (peptide), the copies among sequenced affinity-selected clones is 1 copy.

… (peptide): the copies among sequenced affinity-selected clones was determined as 1 copy.

GACLRHT (peptide): the copies among sequenced affinity-selected clones is 7 copies.

Substance RRSPGLP (peptide) displayed a copies among sequenced affinity-selected clones of 1 copy.

On to GACLKHT (peptide), for which the copies among sequenced affinity-selected clones was 1 copy.

DYMPDTGG (peptide): the copies among sequenced affinity-selected clones worked out at 1 copy.
